From patent US20100003740A1, “CHEMICALLY DEFINED CULTURE MEDIUM FOR NEISSERIA” (priority 2006, published 2010)

What follows are molecules tested on N. gonorrhoeae (assay: MIC determination by macrobroth dilution in the medium compared with E-test strips on chocolate agar (Example 5, FIG. 6)). Settings: 8 strains of N. gonorrhoeae; susceptible, intermediate or resistant by published breakpoints.
Type: cell-based

In order of rising “percentage of strains allocated to same susceptibility category by both methods” value:
1. CC1(C)S[C@@H]2[C@H](NC(=O)Cc3ccccc3)C(=O)N2[C@H]1C(=O)O [benzylpenicillin]  75 percentage
2. CC1(C)S[C@@H]2[C@H](NC(=O)[C@H](N)c3ccc(O)cc3)C(=O)N2[C@H]1C(=O)O [amoxicillin]  87.5 percentage
3. CO/N=C(\C(=O)N[C@@H]1C(=O)N2C(C(=O)O)=C(CSc3nc(=O)c(=O)[nH]n3C)CS[C@H]12)c1csc(N)n1 [ceftriaxone]  100 percentage
